Experimental data as given in patent US5629198A (priority 1991, dated 1997).

Assays:
[1] = system: human peripheral blood lymphocytes (PBL), uninfected system; experiment: Living cells in uninfected PBL system (Test Example 7); type: cell-based; conditions: 200 μg/ml
Description: The anti-HIV effects of test substances on human peripheral blood lymphocytes infected with HIV were determined.
After blood is collected from a vein by a syringe whose interior wall is wetted with heparin, PBL is separated from the blood with Ficol. After this PBL cell is inoculated on a 25-cm^2 culture flask containing 10 ml of a RPMI 1640 medium (including IL-2) added with 20% of a fetal bovine serum so as to contain 7×10^5 cells/ml therein, 40 μl (1 mg/ml) of PHA are added to culture the cells for 2 days. After 2 days, the cells are washed. Thereafter, they are used in assaying the anti-HIV effects of the test substances as PBL cells in an HIV-uninfected system for part of them, and in an HIV-infected system for the remainder. The PBL cells are inoculated on a 25-cm^2 culture flask added with 5 ml of the above medium so as to contain 2×10^6 cells therein. Then, 500 μl (final concentration: 200 μg/ml) of S-HSA-EDC-Hemin are given thereto so as to conduct culture at 37° C. in the presence of 5% CO2, thereby assaying the cytotoxic effect of the test substance. With respect to the infected system on the other hand, 0.5 ml of HTLV-IIIB (10^7 TCID50 /ml) obtained from a culture supernatant of an HIV-persistently infected strain, MOLT-4/HTLV-IIIB is inserted in the PBL cells to culture them for 2 days. Thereafter, the cells are washed, and then inoculated on a 25-cm^2 culture flask added with 5 ml of the medium so as to contain 2×10^6 cells therein. In the same manner as described above, S-HSA-EDC-Hemin is given thereto, thereby conducting culture at 37° C. in the presence of 5% CO2. After 4 days, the number of cells are counted to calculate the number of HIV envelope protein gp120 positive cells, analysis making use of FACS and the quantity of P24 protein produced.

MOLT-4/HTLV-IIIB = experiment: Killing effect on cells persistently infected with HIV (Test Example 1), trypan blue; type: cell-based, human; conditions: 3 days
Description: (§1) The cell killing effects of test substances were determined using a cell strain persistently infected with HIV in MOLT-4 cells and MOLT-4 cells.
(§2) MOLT4/HTLV-IIIB, MOLT4/ARV and MOLT4 cell strains were separately inoculated in proportions of 4×10^4 cells/well (200 μl) on a 96-well plate, and the above test substances in various concentrations were separately added in an amount of 20 μl thereto. After each cell sample was cultured for 3 days at 37° C. in the presence of 5% CO2, the culture was diluted to a triple or quadruple amount, thereby counting the number of living cells by a trypan blue dye exclusion test. As a control, 20 μl of PBS were added in place of each test substance. Each numerical value is expressed in terms of the percentage of living cells to the control.

MOLT-4/ARV = experiment: as above; type: cell-based, human; conditions: 3 days
Description: as §1, §2

HTLV-IIIB in MT-4 cells = experiment: Anti-HIV effect: TCID50 of infectious virus from infected MT-4 cells (Test Example 5); type: cell-based, HIV (HTLV-IIIB); conditions: 37.9 μg/ml, 4 days; positive control 3.31 × 10^7
Description: The inhibitory effects of test substances on the cytopathy and HIV antigen production of MT-4 cells due to HIV infection were determined.
MT-4 cells belonging to a cell strain persistently infected with HTLV-1 are high in sensitivity to HIV and promptly die out when infected. MT-4/HIV cells which are MT-4 cells infected with HIV are used for screening anti-HIV agents making good use of this nature.
After MT-4 cells (1.2×10^7 cells) were infected for 2 hours at 37° C. with 3.2 ml of HTLV-IIIB (10^7 TCID50 /ml) obtained from a culture supernatant of a cell strain persistently infected with HIV, i.e., […], the cells were washed. After the cells were then inoculated on a 48-well microplate in a proportion of 1×10^5 cells/well, the test substances were separately added in an amount of 100 μl. As a negative control, there was used a culture obtained by adding 3.2 ml of a culture supernatant after culturing MOLT-4 cells for 3 days to MT-4 cells (4.7×10^6 cells), conducting culture for 2 hours at 37° C., washing the cells in the same manner as described above, inoculating them in a proportion of 1×10^5 cells/well and adding PBS in place of the test substances.
Upon elapsed time of 4 days after the culture, each supernatant was assayed on a P24gag protein based on an EIA kit produced by Abbott Labs, and the number of living cells was counted by the Trypan Blue dye exclusion method, and moreover, TCID50 indicative of an actual quantity of infectious virus was calculated.

S--HSA--EDC-Hemin: complex of succinylated human serum albumin and EDC-Hemin
living cells in uninfected system, % of the control ([1]; after 4 days): 45% | Total number of living cells, uninfected system ([1]; day 0 of culture): 2.0 ×10^6 | Total number of living cells, uninfected system ([1]; day 4 of culture (untreated 19.1)): 8.6 ×10^6 | living cells (percentage to the control) (MOLT-4/HTLV-IIIB; 37.9 μg/ml): 69% | living cells (percentage to the control) (MOLT-4/HTLV-IIIB; 113.7 μg/ml): 0% | living cells (percentage to the control) (MOLT-4/HTLV-IIIB; 151.6 μg/ml): 0% | living cells (percentage to the control) (MOLT-4/ARV; 37.9 μg/ml): 72% | living cells (percentage to the control) (MOLT-4/ARV; 151.6 μg/ml): 0% | TCID50 (quantity of infectious virus) (HTLV-IIIB in MT-4 cells): 2.82 × 10^4 TCID50 /ml
